A mixed list of measured activities; the numbers were collected in NIAID ChemDB.

All rows: target-level tests; species: Hepatitis C virus

Percent inhibition refers to the dose given; in toxicity tests it is the harm to the cells. ICn is the concentration giving n% inhibition. Conditions beyond the fields shown may differ between rows. a–b is a range or a potency band.

{"SMILES": "CC1CCC(C(=O)N(c2cc(-c3cccc(C(F)(F)F)c3)sc2C(=O)O)C(C)C)CC1", "read-out": "IC50", "protein": "NS3 ATPase", "value": "<5 µM"}
{"SMILES": "O=C(O)CCc1cccc(NC(=O)C2(NC(=O)c3ccc4c(c3)nc(-c3ccoc3)n4C3CCCCC3)CCCC2)c1", "read-out": "IC50", "protein": "NS5B polymerase", "value": "0.5–5 µM"}
{"SMILES": "Cc1ccsc1-c1nc(C(=O)O)c(O)c(=O)[nH]1", "read-out": "IC50", "protein": "HCV polymerase", "value": "<25 µM"}
{"SMILES": "CNC(=O)c1c(-c2ccc(F)cc2)oc2cc(NC(C)=O)c(OC(C)C)cc12", "read-out": "IC50", "protein": "Nonstructural protein 5B", "value": "≤0.5 µM"}
{"SMILES": "O=C(O)c1ccc2c(c1)nc(-c1ccc3nc(-c4ccc(N5CCNCC5)cc4)ccc3c1)n2C1CCCCC1", "read-out": "inhibition", "protein": "NS5B polymerase", "tested at": "33 µM", "value": "91.81%"}
{"SMILES": "CC[C@@H](C=O)NC(=O)[C@@H]1C[C@@H](OCc2ccccc2)CN1C(=O)[C@@H](NC(=O)[C@@H](NC(=O)OCc1ccccc1)C(C)C)C(C)C", "read-out": "Ki", "protein": "NS3 protease", "value": "1–100 µM"}
{"SMILES": "O=C(Cc1cccc2ccccc12)Nc1cscc1-c1nc(C(=O)O)c(O)c(=O)[nH]1", "read-out": "IC50", "protein": "HCV polymerase", "value": "<25 µM"}
{"SMILES": "C=C[C@H]1C[C@@]1(NC(=O)c1ccc2c(c1)nc(-c1ccoc1)n2C1CCCCC1)C(=O)Nc1ccc(/C=C/C(=O)O)cc1", "read-out": "IC50", "protein": "NS5B polymerase", "value": "<0.5 µM"}
{"SMILES": "Cc1ccccc1S(=O)(=O)Nc1cc(-c2ccc(Cl)c(Cl)c2)sc1C(=O)O", "read-out": "IC50", "protein": "NS3 ATPase", "value": "5–20 µM"}
{"SMILES": "O=C(NC1(C(=O)Nc2ccc3[nH]c(C(=O)O)cc3c2)CCCC1)c1ccc2c(c1)nc(-c1ccoc1)n2C1CCCCC1", "read-out": "IC50", "protein": "NS5B polymerase", "value": "<0.5 µM"}
{"SMILES": "CNC(=O)c1c(-c2ccc(F)cc2)oc2cc(-c3cc(CO)on3)c(OC(C)C)cc12", "read-out": "IC50", "protein": "Nonstructural protein 5B", "value": "≤0.5 µM"}
{"SMILES": "COc1ccc(OC)c(COc2cccc(-c3cnc4c(-c5nn[nH]n5)cnn4c3C3CCCCC3)c2)c1", "read-out": "IC50", "protein": "RNA-dependent RNA polymerase", "value": "1–10 µM"}
{"SMILES": "CC1CCC(C(=O)N(c2cc(-c3ccc(Cl)cc3)sc2C(=O)O)C(C)C)CC1", "read-out": "IC50", "protein": "NS3 ATPase", "value": "<5 µM"}
{"SMILES": "O=C(O)/C=C/c1ccc(NC(=O)C2(NC(=O)c3ccc4c(c3)nc(-c3cccc5c3OCO5)n4C3C[C@H]4CC[C@@H]3C4)CCCC2)cc1", "read-out": "IC50", "protein": "NS5B polymerase", "value": "0.5–5 µM"}
{"SMILES": "c1cc(-c2cnc3c(-c4nn[nH]n4)cnn3c2C2CCCCC2)ccc1OC1CCCC1", "read-out": "IC50", "protein": "RNA-dependent RNA polymerase", "value": "1–10 µM"}
{"SMILES": "O=C(O)c1ccc2c(c1)nc(-c1ccc3nc(-c4ccc(Oc5ccc(Cl)cc5)cc4Cl)ccc3c1)n2C1CCCCC1", "read-out": "inhibition", "protein": "NS5B polymerase", "tested at": "100 µM", "value": "100%"}
{"SMILES": "Cc1c(C(=O)O)sc2ccc(NC(=O)C3(NC(=O)c4ccc5c(c4)nc(-c4ccoc4)n5C4CCCCC4)CCCC3)cc12", "read-out": "IC50", "protein": "NS5B polymerase", "value": "<0.5 µM"}
{"SMILES": "CNC(=O)c1ccc(-c2ccc(Cl)cc2)c(-c2ccc3cc(-c4nc5cc(C(=O)O)ccc5n4C4CCCCC4)ccc3n2)c1", "read-out": "inhibition", "protein": "NS5B polymerase", "tested at": "100 µM", "value": "101%"}
{"SMILES": "CC(NC(=O)c1ccc2c(c1)nc(-c1ccoc1)n2C1CCCCC1)C(=O)Nc1ccc(OCC(=O)O)cc1", "read-out": "IC50", "protein": "NS5B polymerase", "value": "0.5–5 µM"}
{"SMILES": "O=C(O)c1sc(-c2ccccc2)cc1N(C(=O)c1ccc(Cl)cc1Cl)C1CC[C@@H](C(=O)O)C1", "read-out": "IC50", "protein": "NS3 ATPase", "value": "<5 µM"}
{"SMILES": "O=C(O)c1nc(-c2ccc3ccccc3c2)[nH]c(=O)c1O", "read-out": "IC50", "protein": "HCV polymerase", "value": "<100 µM"}
{"SMILES": "O=C(O)CCNC(=O)c1cc2nc(-c3ccc(Cl)cc3)cc(-c3ccc(Oc4ccccc4)cc3)n2n1", "read-out": "IC50", "protein": "RNA-dependent RNA polymerase", "value": "1–10 µM"}
{"SMILES": "CNC(=O)c1c(-c2ccc(F)cc2)oc2cc(-c3c(C)noc3C)c(OCc3cscn3)cc12", "read-out": "IC50", "protein": "Nonstructural protein 5B", "value": "≤0.5 µM"}
{"SMILES": "O=C(O)c1nc(-c2cc([N+](=O)[O-])cs2)[nH]c(=O)c1O", "read-out": "IC50", "protein": "HCV polymerase", "value": "<25 µM"}
{"SMILES": "O=C(NC(Cc1c[nH]c2ccc(O)cc12)C(=O)O)c1ccc2c(c1)nc(-c1ccc3nc(-c4cc(C(=O)N5CCCC5)ccc4-c4ccc(Cl)cc4)cnc3c1)n2C1CCCCC1", "read-out": "inhibition", "protein": "NS5B polymerase", "tested at": "100 µM", "value": "99.5%"}
{"SMILES": "CCn1c(C(=O)O)cc2cc(NC(=O)C3(NC(=O)c4ccc5c(c4)nc(-c4ccoc4)n5C4CCCCC4)CCCC3)ccc21", "read-out": "IC50", "protein": "NS5B polymerase", "value": "<0.5 µM"}
{"SMILES": "Nc1ccccc1S(=O)(=O)Nc1cc(-c2ccccc2)sc1C(=O)O", "read-out": "IC50", "protein": "NS3 ATPase", "value": "<5 µM"}
{"SMILES": "O=C(O)c1ccc2c(c1)nc(-c1ccc3nc(-c4ccc(N5CCOCC5)cc4)ccc3c1)n2C1CCCCC1", "read-out": "inhibition", "protein": "NS5B polymerase", "tested at": "100 µM", "value": "101%"}
{"SMILES": "O=C(N[C@@H](Cc1ccccc1)C(=O)O)c1cnn2c(C3CCCCC3)c(-c3ccc(OCc4ccccc4)cc3)cnc12", "read-out": "IC50", "protein": "RNA-dependent RNA polymerase", "value": "<1 µM"}
{"SMILES": "Cc1ccc(C(=O)N(C)c2cc(-c3ccc(C(F)(F)F)cc3)sc2C(=O)O)cc1", "read-out": "IC50", "protein": "NS3 ATPase", "value": "<5 µM"}
{"SMILES": "CC(C)(C)OC(=O)N[C@@H](COC(=O)Nc1ccsc1-c1nc(C(=O)O)c(O)c(=O)[nH]1)c1ccccc1", "read-out": "IC50", "protein": "HCV polymerase", "value": "<25 µM"}
{"SMILES": "CC[C@@H](C=O)NC(=O)[C@@H]1C[C@@H](OCc2ccccc2)CN1C(=O)[C@@H](NC(=O)[C@H](Cc1cccc2ccccc12)NC(=O)c1cnccn1)C(C)C", "read-out": "Ki", "protein": "NS3 protease", "value": "1–100 µM"}
{"SMILES": "Cc1ccc(C(=O)N(C)c2cc(-c3ccccn3)sc2C(=O)O)cc1", "read-out": "IC50", "protein": "NS3 ATPase", "value": "5–20 µM"}
{"SMILES": "c1cncc(COc2ccc(-c3cnc4c(-c5nn[nH]n5)cnn4c3C3CCCCC3)cc2)c1", "read-out": "IC50", "protein": "RNA-dependent RNA polymerase", "value": "1–10 µM"}
{"SMILES": "CC[C@@H](C=O)NC(=O)[C@@H]1C[C@@H](OCc2ccc3c(c2)OCOC3)CN1C(=O)[C@@H](NC(=O)[C@@H](NC(=O)c1cnccn1)C(C)C)C(C)C", "read-out": "Ki", "protein": "NS3 protease", "value": "1–100 µM"}
{"SMILES": "O=C(O)/C=C/c1ccc(NC(=O)C2(NC(=O)c3ccc4c(c3)nc(-c3ccoc3)n4C3CCCCC3)CC2)cc1", "read-out": "IC50", "protein": "NS5B polymerase", "value": "<0.5 µM"}
{"SMILES": "O=C(O)c1nc(-c2ccccc2NS(=O)(=O)c2ccc(C(F)(F)F)cc2Cl)[nH]c(=O)c1O", "read-out": "IC50", "protein": "HCV polymerase", "value": "<100 µM"}
{"SMILES": "O=C(O)c1cc2nc(-c3ccc(OCc4ccccc4)cc3)cc(-c3cccc(Cl)c3)n2n1", "read-out": "IC50", "protein": "RNA-dependent RNA polymerase", "value": "1–10 µM"}
{"SMILES": "O=C(c1ccc2c(c1)nc(-c1cc3ccc(-c4ccccc4-c4ccccc4)nc3cc1F)n2C1CCCCC1)N1CCC(O)CC1", "read-out": "inhibition", "protein": "NS5B polymerase", "tested at": "33 µM", "value": "84.34%"}
{"SMILES": "O=C(O)c1cnn2c(-c3cccc(-c4ccc(Cl)s4)c3)ccnc12", "read-out": "IC50", "protein": "RNA-dependent RNA polymerase", "value": ">10 µM"}
{"SMILES": "O=C(O)c1nc(-c2ccccc2NS(=O)(=O)c2ccc3c(Cl)cccc3c2)[nH]c(=O)c1O", "read-out": "IC50", "protein": "HCV polymerase", "value": "<100 µM"}
{"SMILES": "CC[C@@H](C=O)NC(=O)[C@@H]1C[C@@H](OCc2ccccc2)CN1C(=O)[C@@H](NC(=O)Cc1ccc(NC(=O)c2ccccc2)cc1)C(C)C", "read-out": "Ki", "protein": "NS3 protease", "value": ">100 µM"}
{"SMILES": "CNC(=O)c1c(-c2ccc(F)cc2)oc2cc(N(C)S(C)(=O)=O)c(C(N)=O)c(OC)c12", "read-out": "IC50", "protein": "Nonstructural protein 5B", "value": "≤0.5 µM"}
{"SMILES": "O=C(O)c1ccc2c(c1)nc(-c1ccc3nc(-c4cccc(-c5ccc(Cl)cc5)c4)ccc3c1)n2C1CCCCC1", "read-out": "inhibition", "protein": "NS5B polymerase", "tested at": "33 µM", "value": "101.5%"}
{"SMILES": "O=C(O)c1cc2nc(-c3cccc(Cl)c3)cc(-c3ccccc3)n2n1", "read-out": "IC50", "protein": "RNA-dependent RNA polymerase", "value": ">10 µM"}
{"SMILES": "Cc1cc(-c2ccccc2-c2ccc(Cl)cc2)nc2ccc(-c3nc4cc(C(=O)O)ccc4n3C3CCCCC3)cc12", "read-out": "inhibition", "protein": "NS5B polymerase", "tested at": "100 µM", "value": "99.54%"}
{"SMILES": "CC[C@@H](C=O)NC(=O)[C@@H]1C[C@@H](OCc2ccccc2)CN1C(=O)[C@@H](NC(=O)Cc1ccc(NC(C)=O)cc1)C(C)C", "read-out": "Ki", "protein": "NS3 protease", "value": ">100 µM"}

The last 6 rows once more:

CC[C@@H](C=O)NC(=O)[C@@H]1C[C@@H](OCc2ccccc2)CN1C(=O)[C@@H](NC(=O)Cc1ccc(NC(=O)c2ccccc2)cc1)C(C)C ; read-out: Ki ; protein: NS3 protease ; value: >100 µM
CNC(=O)c1c(-c2ccc(F)cc2)oc2cc(N(C)S(C)(=O)=O)c(C(N)=O)c(OC)c12 ; read-out: IC50 ; protein: Nonstructural protein 5B ; value: ≤0.5 µM
O=C(O)c1ccc2c(c1)nc(-c1ccc3nc(-c4cccc(-c5ccc(Cl)cc5)c4)ccc3c1)n2C1CCCCC1 ; read-out: inhibition ; protein: NS5B polymerase ; tested at: 33 µM ; value: 101.5%
O=C(O)c1cc2nc(-c3cccc(Cl)c3)cc(-c3ccccc3)n2n1 ; read-out: IC50 ; protein: RNA-dependent RNA polymerase ; value: >10 µM
Cc1cc(-c2ccccc2-c2ccc(Cl)cc2)nc2ccc(-c3nc4cc(C(=O)O)ccc4n3C3CCCCC3)cc12 ; read-out: inhibition ; protein: NS5B polymerase ; tested at: 100 µM ; value: 99.54%
CC[C@@H](C=O)NC(=O)[C@@H]1C[C@@H](OCc2ccccc2)CN1C(=O)[C@@H](NC(=O)Cc1ccc(NC(C)=O)cc1)C(C)C ; read-out: Ki ; protein: NS3 protease ; value: >100 µM